Compound potency records, mixed from different reports. Data source: NIAID ChemDB in PubChem.

All rows: growth or infection tests; organism: HIV-1; cell line: CEM + CEM-SS; measure: fold resistance

Fold resistance: result on the changed form divided by that on wild type.

smiles	strain or isolate	mutations	method	value
Cc1occc1C(=S)Nc1ccc(Cl)c(/C=N/OC(C)(C)C)c1	NL4-3 (RT K103N)	RT-K103N	cytopathic effect / XTT	60
Cc1ccnc2c1NC(=O)c1cccnc1N2C1CC1	4xAZT/L100I(RT-D67N K70R T215Y K219Q L100I)	RT-D67N K70R L100I T215Y K219Q	cytopathic effect / XTT	1.5
O=S(=O)(c1ccccc1)c1ccccc1	UC781-R (RT-Y181C)	RT-Y181C	cytopathic effect / XTT	>16.3
Cc1cn([C@H]2C[C@H](N=[N+]=[N-])[C@@H](CO)O2)c(=O)[nH]c1=O	Costatolide-resistant (RT Y188H)	RT-Y188H	XTT	0.08
CC(C)=CCN1Cc2cccc3[nH]c(=S)n(c23)C[C@@H]1C	IIIB(CALO-R(II))	RT-V90I T139I P225S	cytopathic effect / XTT	2.2
Cc1cn([C@H]2C[C@H](N=[N+]=[N-])[C@@H](CO)O2)c(=O)[nH]c1=O	IIIB	RT-V90I T139I P225S	cytopathic effect / XTT	0.2
CC1=C(C(=O)Nc2ccc(Cl)c(C(=O)OC(C)C)c2)SCCO1	IIIB(N119(III))	RT-Y181C	cytopathic effect / XTT	>333
Cc1cn([C@H]2C[C@H](N=[N+]=[N-])[C@@H](CO)O2)c(=O)[nH]c1=O	NL4-3	RT-V106A	cytopathic effect / XTT	1.33
Cc1ccnc2c1NC(=O)c1cccnc1N2C1CC1	NL4-3	RT-K103N	XTT	>100
c1ccc2c(c1)sc1nccn12	IIIB HEPT-resistant (IV)	RT-P236L	cytopathic effect / XTT	0.2
CC(C)=CCN1Cc2cccc3[nH]c(=S)n(c23)C[C@@H]1C	Costatolide-resistant (RT L100I T139I)	RT-L100I T139I	XTT	>350
CCc1c(Sc2ccccn2)n(COCc2ccccc2)c(=O)[nH]c1=O	NL4-3	RT-V108I	cytopathic effect / XTT	2.78
CCc1c(C(=O)c2cc(C)cc(C)c2)n(CC2CC=CC2)c(=O)[nH]c1=O	NL4-3	RT-K103N	cytopathic effect / XTT	>70
CCc1c(Sc2ccccn2)n(COCc2ccccc2)c(=O)[nH]c1=O	IIIB(THZ-R(I))	RT-V108I	cytopathic effect / XTT	47
C/C=C/CSc1cc(NC(=S)c2ccsc2C)ccc1Cl	NL4-3 (RT V179D)	RT-V179D	cytopathic effect / XTT	6
Cc1c(Sc2ccccc2)n(COCCO)c(=O)[nH]c1=O	IIIB	RT-A98G V108I	cytopathic effect / XTT	>18

For reference, 2 entries again:

smiles | strain or isolate | mutations | method | value
Cc1ccnc2c1NC(=O)c1cccnc1N2C1CC1 | NL4-3 | RT-K103N | XTT | >100
CCc1c(C(=O)c2cc(C)cc(C)c2)n(CC2CC=CC2)c(=O)[nH]c1=O | NL4-3 | RT-K103N | cytopathic effect / XTT | >70

Conditions beyond the fields shown may differ between rows.